Data on three substances can be found in article PMC3742671, “Structure, Antimicrobial Activities and Mode of Interaction with Membranes of Bovel Phylloseptins from the Painted-Belly Leaf Frog, Phyllomedusa sauvagii” (PLoS ONE, 2013).

Data set [1] can be described thus: Differential scanning calorimetry on multilamellar vesicles. The note with it: mean from six scans. A general note: Differential scanning calorimetry records heat flow against a reference as temperature is scanned.
Experiment in data set [2]: as above
The note with it: mean from six scans. The source holds these as a separate data set.

Ends that are not written are not given here.

Consider FLSLIPHIVSGVASIAKHF-NH2 [PLS-S1], for which the “Δ(ΔH) total enthalpy of main phase transition” value (“Δ(ΔH) total enthalpy” for short) in data set [1] (peptide/lipid 1:50) is recorded as −75.9%; in data set [1] (peptide/lipid 1:100), −53.4%; in data set [2] (peptide/lipid 1:50), −70.1%; in data set [2] (peptide/lipid 1:100) it was −53.3%.
As for FLSLIPHIVSGVASLAKHF-NH2 [PLS-S2], the “Δ(ΔH) total enthalpy” value in data set [1] (peptide/lipid 1:50) is recorded as −50.0%; in data set [1] (peptide/lipid 1:100), −30.2%; in data set [2] (peptide/lipid 1:50), −40.8%; in data set [2] (peptide/lipid 1:100), −19.6%.
FLSMIPHIVSGVAALAKHL-NH2 [PLS-S4]: the “Δ(ΔH) total enthalpy” value in data set [1] (peptide/lipid 1:50) is −80.2%; in data set [1] (peptide/lipid 1:100), −25.9%; in data set [2] (peptide/lipid 1:50), −66.9%; in data set [2] (peptide/lipid 1:100), −60.9%.
